Anti-infective test results gathered from many reports (values: NIAID ChemDB through PubChem).

Inhibition is in % at the dose shown (toxicity tests: loss of growth or viability).

compound	mutations	read-out	read by	cell line	strain or isolate	agent	test	dose	protein	value
CCO/N=C/c1ccc(OCCC2CCN(c3ccc(C)nn3)CC2)cc1	-	EC50	neutral red	KB	Norman (ICAM-1 receptor group 5)	Rhinovirus	culture	-	-	0.005 µM
O=C(/C=C/c1ccccc1)Nc1nnc(NCCc2c[nH]c3ccccc23)s1	-	IC50	-	-	-	Human cytomegalovirus	target	-	Polymerase	<25 µM
COc1cc2c(c(OC)c1OC)-c1ccc(OC)c(=O)cc1[C@@H](NC(C)=O)CC2	-	inhibition	-	RK-13	-	Encephalitozoon intestinalis	culture	0.1 µg/mL	-	69%
Nc1nc2c(ncn2[C@H]2CC[C@@H](COP(=O)(O)OP(=O)(O)OP(=O)(O)O)O2)c(=O)[nH]1	RT-N137T	IC50	nucleotide incorporation / radiometric	-	-	HIV	target	-	Reverse transcriptase	2.2 µM
CN(CC(C)(CCN1CCC(N(CCO)C(=O)OCc2ccc([N+](=O)[O-])cc2)CC1)c1ccsc1)S(=O)(=O)c1ccccc1	CCR5-Y37A	IC50	radiometric	-	-	-	target	-	CCR5	0.0033 µM
CCOC(=O)Nc1cc(NC(C)/C(=N/O)c2ccc(O)cc2)c([N+](=O)[O-])c(N)n1	-	inhibition	-	RK-13	-	Encephalitozoon intestinalis	culture	0.01 µg/mL	-	7.3%
CC(C)=CCN1c2cc(Cl)cc3[nH]c(=S)n(c23)C[C@@H]1C	RT-M41L T215Y L100I	EC95	-	MT-4	-	HIV-1	culture	-	-	0.2 µM
CO[C@@H]1[C@H](OC(=O)NC(=O)CCl)CC[C@]2(CO2)[C@H]1[C@@]1(C)O[C@@H]1CC=C(C)C	-	inhibition	-	RK-13	-	Encephalitozoon intestinalis	culture	0.00001 µg/mL	-	39.4%
C#CC[C@@H](C(=O)N[C@H](/C=C/C(=O)OCC)C[C@@H]1CCNC1=O)n1cccc(NC(=O)c2cc(C)on2)c1=O	-	inhibition	cytopathic effect / XTT	H1-HELA	Serotype 59	Rhinovirus	culture	0.044 µM	-	90%
O=C(/C=C/c1ccccc1Cl)Nc1nnc(NCC2CC2)s1	-	IC50	-	-	-	Human cytomegalovirus	target	-	Polymerase	<25 µM
CN(C)c1cc(NC(=O)CNC(C)(C)C)c(O)c2c1C[C@H]1C[C@H]3[C@H](N(C)C)C(=O)C(C(N)=O)=C(O)[C@@]3(O)C(=O)C1=C2O	-	MIC	broth dilution	-	X13	Mycobacterium massiliense	culture	-	-	2 µg/mL
O=C(C1CCCCC1)N1C[C@H](CN2CCC(c3ccccc3)CC2)[C@@H](c2ccccc2)C1	CCR5-Y108A	fold resistance	radiometric	-	-	-	target	-	CCR5	42.17
C[C@H](Cc1ccc(O)c(O)c1)[C@@H](C)Cc1ccc(O)c(O)c1	-	MIC50	broth dilution	-	ATCC 10231	Candida albicans	culture	-	-	125 µg/mL
CC(C)=CCOc1cc(NC(=S)c2ccoc2C)ccc1Cl	RT-N137A	fold resistance	nucleotide incorporation / radiometric	-	-	HIV	target	-	Reverse transcriptase	0.27
O=C(NC(=O)c1c(F)cccc1F)Nc1cc(Cl)c(OC(F)(F)C(F)C(F)(F)F)cc1Cl	-	inhibition	-	RK-13	-	Vittaforma corneae	culture	1.25 µg/mL	-	36.9%
CCOc1ccc2ccccc2c1C(=O)Nc1nnc(NCC(c2ccccc2)c2ccccc2)s1	-	IC50	-	-	-	Human cytomegalovirus	target	-	Polymerase	<25 µM
CC[C@H]1C[C@]1(NC(=O)[C@@H]1C[C@@H]2CN1C(=O)[C@H](C(C)(C)C)NC(=O)OCC(C)(C)CCCCc1cccc3c1CN(C3)C(=O)O2)C(=O)NS(=O)(=O)C1CC1	-	IC90	substrate cleavage	-	-	-	host protein	-	Plasmin	>100 µM
COc1ccccc1C(=O)Nc1nnc(NCc2ccc3c(c2)OCO3)s1	-	IC50	-	-	-	Human cytomegalovirus	target	-	Polymerase	>25 µM
CC(C)C(=O)N1C[C@H](CN2CCC(c3ccccc3)CC2)[C@@H](c2ccccc2)C1	CCR5-D276A	IC50	radiometric	-	-	-	target	-	CCR5	0.35 µM
O=C(/C=C/c1ccccc1Cl)Nc1nnc(NCCCNC2CCCCC2)s1	-	IC50	-	-	-	Human cytomegalovirus	target	-	Polymerase	<25 µM
CCOC(=O)Nc1cc2[nH]c(=O)c(-c3ccccc3)nc2c(NC(c2ccccc2)c2ccccc2)n1	-	inhibition	-	RK-13	-	Encephalitozoon intestinalis	culture	1 µg/mL	-	78.8%
CN(C)[C@@H]1C(=O)C(C(N)=O)=C(O)[C@@]2(O)C(=O)C3=C(O)c4c(O)c(NC(=O)CNc5ccccc5)cc(F)c4C[C@H]3C[C@@H]12	-	EC50	agar diffusion	-	161-MRS	Staphylococcus aureus	culture	-	-	4 µg/mL
CC[C@H]1OC(=O)[C@H](C)[C@@H](O[C@H]2C[C@@](C)(OC)[C@@H](O)[C@H](C)O2)[C@H](C)[C@@H](O[C@@H]2O[C@H](C)C[C@H](N(C)C)[C@H]2O)[C@](C)(OC)C[C@@H](C)C(=O)[C@H](C)[C@@H](O)[C@]1(C)O	-	MIC	broth dilution	-	X13	Mycobacterium bolletii	culture	-	-	0.5 µg/mL
c1ccc2[nH]c(-c3cscn3)nc2c1	-	inhibition	-	RK-13	-	Encephalitozoon intestinalis	culture	0.1 µg/mL	-	47.1%
Cc1cn([C@@H]2O[C@H](CO[Si](C)(C)C(C)(C)C)[C@@]3(OS(=O)(=O)C=C3N)[C@H]2O[Si](C)(C)C(C)(C)C)c(=O)[nH]c1=O	RT-N137E	IC50	nucleotide incorporation / radiometric	-	-	HIV	target	-	Reverse transcriptase	2 µM
CCCCCCCC/C=C/CCCCCCCC(=O)Nc1nnc(NCc2cccs2)s1	-	IC50	-	-	-	Human cytomegalovirus	target	-	Polymerase	<25 µM
CCOC(=O)Nc1cc2[nH]c(=O)c(-c3ccccc3)nc2c(N)n1	-	inhibition	-	RK-13	-	Encephalitozoon intestinalis	culture	0.01 µg/mL	-	32.4%
CO[P@](=O)(c1cc(C)cc(/C=C/C#N)c1)c1c(C(N)=O)[nH]c2ccc(Cl)cc12	-	IC50	-	-	-	Human	host protein	-	DNA polymerase gamma	60.1 µM
N#Cc1ccc(C(=O)Nc2nnc(NCc3ccc4c(c3)OCO4)s2)cc1	-	IC50	-	-	-	Human cytomegalovirus	target	-	Polymerase	>25 µM
CCOC(=O)Nc1cc2c(c(N)n1)N=C(c1ccc(N=[N+]=[N-])cc1)CO2	-	inhibition	-	RK-13	-	Encephalitozoon intestinalis	culture	0.1 µg/mL	-	70.8%

An empty or dashed field is not shown. Neighbouring rows are from separate reports. A number after MIC or MFC names an inhibition level or a share of isolates. ECn: concentration that inhibits the pathogen or its effect by n%. Fold resistance has wild type as its base. ICn is the concentration giving n% inhibition.